The target in this test is T1, Ig V domain of human T-cell immunoglobulin and mucin domain protein 1 (hTIM-1) (human, UniProt Q96D42 22-127).
T1 chain: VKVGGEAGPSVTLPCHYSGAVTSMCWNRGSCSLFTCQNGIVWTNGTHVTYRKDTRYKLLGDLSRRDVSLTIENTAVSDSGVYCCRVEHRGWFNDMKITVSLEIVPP
As to the kind of experiment: SPR. For orientation: SPR reads the build-up and loss of mass on a sensor chip optically.

By Kd is commonly meant the free concentration of one partner at which half of the binding sites on the other are occupied at equilibrium, for simple one-to-one binding. Higher therefore signals a looser complex.

B1: Zaire GP (1–320) with a His tag (domain or fragment)
chain: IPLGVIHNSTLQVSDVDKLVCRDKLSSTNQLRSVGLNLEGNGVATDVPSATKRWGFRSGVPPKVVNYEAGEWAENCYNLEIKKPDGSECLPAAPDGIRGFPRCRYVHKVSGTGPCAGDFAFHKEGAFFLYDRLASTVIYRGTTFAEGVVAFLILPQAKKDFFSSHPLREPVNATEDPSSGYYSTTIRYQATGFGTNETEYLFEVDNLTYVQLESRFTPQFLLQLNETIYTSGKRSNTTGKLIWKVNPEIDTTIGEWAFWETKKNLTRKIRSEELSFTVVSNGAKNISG
Regarding B1, the Kd is 26.7 µM.

B2: Zaire GP (1–308) with a His tag (domain or fragment)
chain: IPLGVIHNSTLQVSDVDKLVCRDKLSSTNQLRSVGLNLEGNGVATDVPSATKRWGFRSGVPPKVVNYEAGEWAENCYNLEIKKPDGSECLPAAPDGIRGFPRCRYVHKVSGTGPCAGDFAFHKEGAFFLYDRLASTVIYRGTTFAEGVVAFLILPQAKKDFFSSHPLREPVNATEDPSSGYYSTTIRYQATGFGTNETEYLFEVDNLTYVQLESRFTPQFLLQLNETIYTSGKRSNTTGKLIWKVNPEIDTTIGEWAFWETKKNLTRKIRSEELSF
For the molecule B2, the Kd amounted to 12 µM.

Values taken from article PMC4624681 (2015).
